Measured values from several laboratories, pooled; numbers as filed in NIAID ChemDB.

Common to all: whole-cell or culture tests

Lines come from different laboratories, so protocols vary.

smiles,read-out,cells,tested at,method,species,strain or isolate,value
Cc1ccc(CCCOc2cc(C)c(-c3noc(C(F)F)n3)c(C)c2)nn1,EC50,HeLa,-,cytopathic effect,Enterovirus,-,0.033–0.659 µg/mL
c1cc(N2CCN(c3ccc(C4=NCCCN4)cc3)CC2)ccc1C1=NCCCN1,EC50,-,-,ATP,Pneumocystis carinii,-,1.44 µg/mL
CO/N=C1\CN(c2nc3c(cc2F)c(=O)c(C(=O)O)cn3C2CC2)CC1CN,MIC90,-,-,-,Streptococcus pneumoniae,19 isolates (penicillin-resistant),0.063 µg/mL
Nc1nc2c(ncn2COC(CO)CO)c(=O)[nH]1,EC50,MRC-5,-,hybridisation,Human cytomegalovirus,8805REC1 (MET460VAL),1.7 µM
O=c1[nH]c(=O)n([C@H]2C[C@H](O)[C@@H](CO)O2)cc1Br,inhibition,ME,1.268 µg/mL,hybridisation,Murine polyoma virus,-,78.6%
C[C@@H](c1ncncc1F)[C@](O)(Cn1cncn1)c1ccc(F)cc1F,MIC90,-,-,broth dilution,Cryptococcus gattii,VG IIb,0.125 µg/mL
CCOC(=O)c1cc(C#N)c2[nH]c3ccccc3n2c1=O,EC50,HEP-2,-,syncytia,Respiratory syncytial virus,-,36.5 µg/mL
CCC[C@H](O)C[C@@H]1CC[C@H](C)CCCCC(=O)N(C)[C@@H](Cc2ccc(OCCO)cc2)C(=O)O1,MIC,-,-,-,Saccharomyces cerevisiae,ERG26,12.5 µg/mL
Nc1ncnc2c1ncn2[C@@H]1C=C[C@@H](O)[C@H]1O,EC50,CV-1,-,cytopathic effect,Measles virus,-,1 µg/mL
Cc1ccc(CCCOc2c(C)cc(-c3nnn(C)n3)cc2C)o1,EC50,HeLa,-,cytopathic effect,Enterovirus,-,0.033–0.659 µg/mL
CCN=C(N)c1ccc(N2CCN(c3ccc(C(N)=NCC)cc3)CC2)cc1,EC50,-,-,ATP,Pneumocystis carinii,-,0.542 µg/mL
CCn1nc(CC(=O)N/N=C/c2ccco2)nc1C,MIC,-,-,-,Coxsackie virus,B4,>400 µg/mL
Nc1cccc(S(=O)(=O)N(CC2CCCC2)C[C@@H](O)CN(CCc2ccccc2)C(=O)O[C@@H]2COC3OCCC32)c1,EC90,CEM,-,p24,HIV-1,IIIB,0.1 µM
CCc1nc(CC(=O)NN=C(C)C)nn1CC,MIC,-,-,-,Reovirus,TYPE 1,>80 µg/mL
COc1ccn2nc(C)c(C(=O)NCc3ccc(N4CCN(c5ccc(OC(F)(F)F)cc5)[C@@H](C)C4)c(Cl)c3)c2c1.Cl,inhibition,-,0.014 µM,fluorescence,Mycobacterium avium,-,85%
Cc1nc(Cc2n[nH]c(=S)n2-c2ccccc2)nn1C,MIC,-,-,-,Sindbis virus,-,>80 µg/mL
CC(C)CN(CC(O)Cn1ccnc1S(=O)(=O)c1ccccc1)S(=O)(=O)c1ccccc1,EC90,CEM,-,p24,HIV-1,IIIB,1 µM
Nc1ncnc2c1ncn2[C@@H]1CC[C@@H](O)[C@H]1O,EC50,CV-1,-,neutral red,Measles virus,SA,>100 µg/mL
CCCc1cc(=O)oc2c3c(c4c(c12)OC(C)(C)[C@H](O)[C@@H]4O)O[C@H](C)[C@@H](C)[C@@H]3O,EC50,CV-1,-,cytopathic effect,Measles virus,CC,4 µg/mL
Cn1nc(Cc2ccc(Cl)cc2)c2ccccc2c1=O,MFC,-,-,broth dilution,Cryptococcus neoformans,Clinical isolate (IM 031631),125 µg/mL
C=CCc1ccc(OC)c(OC)c1,MIC90,-,-,turbidity,Candida tropicalis,2557,340 µg/mL
Nc1ccc(S(=O)(=O)O)cc1,inhibition,Human embryonic lung cells,10 µg/mL,cytopathic effect,Adenovirus,TYPE 3,0%
CC(C)Nc1nc2cc(Cl)c(Cl)cc2n1[C@H]1O[C@@H](CO)[C@H](O)[C@@H]1O,EC50,MRC-5,-,hybridisation,Human cytomegalovirus,1038RB (ASP344GLU AND ALA355VAL),0.04 µM
CC(C)CN(CC(O)Cc1ccccc1C(=O)NC(C)(C)C)S(=O)(=O)c1ccccc1,EC90,CEM,-,p24,HIV-1,IIIB,1 µM
Cc1nc2ccc(F)cn2c1C(=O)NCc1ccc(N2CCN(c3ccc(OC(F)(F)F)cc3)[C@@H](C)C2)c(F)c1,inhibition,-,0.015 µM,fluorescence,Mycobacterium avium,-,85%
NNC(=O)Cc1nc2n(n1)CCCCC2,MIC,-,-,-,Coxsackie virus,B4,>400 µg/mL
O=C(Nc1ccc2c(O)c(N=Nc3ccc(N=Nc4ccc(S(=O)(=O)O)cc4)cc3)c(S(=O)(=O)O)cc2c1)c1ccccc1,inhibition,Human embryonic lung cells,5 µg/mL,cytopathic effect,Rhinovirus,-,0%
Nc1ncnc2c1ncn2[C@H]1C[C@H](O)[C@H](O)[C@@H]1O,EC50,CV-1,-,cytopathic effect,Measles virus,-,1 µg/mL
Nc1ccn([C@@H]2CS[C@H](CO)O2)c(=O)n1,EC50,Primary duck hepatocytes,-,-,Duck hepatitis B virus,-,0.5 µM
CS[C@H]1C=C[C@@H](n2cnc3c(N)ncnc32)C1,EC50,CV-1,-,neutral red,Measles virus,-,>100 µg/mL
CC(C)CN(CC(O)CN(CC(C)C)S(=O)(=O)c1ccccc1)S(=O)(=O)c1ccccc1,EC90,CEM,-,p24,HIV-1,IIIB,1 µM
CCCCCCCN=C(N)c1ccc(N2CCN(c3ccc(C(N)=NCCCCCCC)cc3)CC2)cc1,EC50,-,-,ATP,Pneumocystis carinii,-,0.034 µg/mL
CCCc1ccc(CCCOc2ccc(-c3noc(C4CC4)n3)c(C)c2)nn1,EC50,HeLa,-,cytopathic effect,Enterovirus,-,0.033–0.659 µg/mL
CCC(C)n1ncn(-c2ccc(N3CCN(c4ccc(OC[C@H]5CO[C@](Cn6cncn6)(c6ccc(Cl)cc6Cl)O5)cc4)CC3)cc2)c1=O,MIC,-,-,broth dilution,Cryptococcus neoformans,Clinical isolate (IM 042074),<0.015 µg/mL
O=[N+]([O-])c1cc([N+](=O)[O-])c2ccc(S(=O)(=O)O)cc2c1O,inhibition,Human amnion AV3 cells,10 µg/mL,cytopathic effect,Herpes simplex virus,-,0%
CCC(C)CC(C)CCCCCCCCC(=O)N[C@H]1C[C@@H](O)[C@H](NCCN)NC(=O)[C@@H]2[C@@H](O)CCN2C(=O)[C@H]([C@H](O)CCN)NC(=O)[C@H]([C@H](O)[C@@H](O)c2ccc(O)cc2)NC(=O)[C@@H]2C[C@@H](O)CN2C(=O)[C@H]([C@@H](C)O)NC1=O,MIC,-,-,broth dilution,Cryptococcus gattii,CBS 11247,16 µg/mL
CCCc1cc(=O)oc2cc(OS(=O)(=O)c3ccc(C)cc3)cc(O)c12,EC50,CV-1,-,cytopathic effect,Measles virus,SA,0.2 µg/mL
N#Cc1cc(NC(=O)c2ccccc2)c(=O)n2c1[nH]c1ccccc12,EC50,HEP-2,-,plaque count,Respiratory syncytial virus,FM-58-8,0.1 µg/mL
Cc1nc2cc(C(F)(F)F)ccn2c1C(=O)NCc1ccc(C2CCN(c3ccc(OC(F)(F)F)cc3)CC2)c(F)c1,inhibition,-,0.76 µM,fluorescence,Mycobacterium avium,-,85%
Cc1ccc(C(=O)Nc2ccc(S(=O)(=O)O)c3cc(S(=O)(=O)O)cc(S(=O)(=O)O)c23)cc1NC(=O)c1cccc(NC(=O)Nc2cccc(C(=O)Nc3cc(C(=O)Nc4ccc(S(=O)(=O)O)c5cc(S(=O)(=O)O)cc(S(=O)(=O)O)c45)ccc3C)c2)c1,inhibition,Human amnion AV3 cells,5 µg/mL,cytopathic effect,Rhinovirus,-,20%
S=c1[nH]nc(Cc2nc3n(n2)CCCCC3)o1,MIC,-,-,-,Reovirus,TYPE 1,>80 µg/mL
NC(=Nc1ccccc1)c1ccc(N2CCN(c3ccc(C(N)=Nc4ccccc4)cc3)CC2)cc1,EC50,-,-,ATP,Pneumocystis carinii,-,0.116 µg/mL
COCc1ccc(CCCOc2c(C)cc(-c3noc(C(F)F)n3)cc2C)nn1,EC50,HeLa,-,cytopathic effect,Enterovirus,-,0.033–0.659 µg/mL
COc1ccn2nc(C)c(C(=O)NCc3cc(F)c(N4CCC(c5ccc(OC(F)(F)F)cc5)CC4)c(F)c3)c2c1.Cl,inhibition,-,0.019 µM,fluorescence,Mycobacterium avium,-,85%
Cc1cc(OCCCc2ccc(F)nn2)cc(C)c1-c1noc(C(F)(F)F)n1,EC50,HeLa,-,cytopathic effect,Enterovirus,-,0.033–0.659 µg/mL
O=C(Nc1cc(S(=O)(=O)[O-])cc2cc(S(=O)(=O)[O-])ccc12)c1ccccc1,inhibition,Human amnion AV3 cells,50 µg/mL,cytopathic effect,Herpes simplex virus,-,0%
Cc1nc(CC(=O)NN)nn1C,MIC,-,-,-,Reovirus,TYPE 1,>80 µg/mL
COc1ccc(S(=O)(=O)N(CC(C)C)C[C@@H](O)CCN(CC2CCCC2)S(=O)(=O)Cc2cc(C)on2)cc1,EC90,CEM,-,p24,HIV-1,IIIB,1 µM
Cc1nc(-c2cc(C)c(OCCCc3ccc(C(F)F)o3)c(C)c2)no1,EC50,HeLa,-,cytopathic effect,Enterovirus,-,0.033–0.659 µg/mL
CCCc1cc(=O)oc2cc(OC(=O)C(C)(C)C)c3c(c12)OC(C)(C)C=C3,EC50,CV-1,-,cytopathic effect,Measles virus,MO2,1 µg/mL
Cc1cc(-c2ccc(N=Nc3c(S(=O)(=O)O)cc4cc(S(=O)(=O)O)cc(N)c4c3O)c(C)c2)ccc1N=Nc1c(S(=O)(=O)O)cc2cc(S(=O)(=O)O)cc(N)c2c1O,inhibition,Human embryonic lung cells,50 µg/mL,cytopathic effect,Adenovirus,TYPE 3,20%
Cc1cc(OCCCc2ccc(I)nn2)cc(C)c1-c1noc(C(F)F)n1,EC50,HeLa,-,cytopathic effect,Enterovirus,-,0.033–0.659 µg/mL
[2H]c1c(C([2H])([2H])[2H])c([2H])n2c(C(=O)NCc3ccc(S(F)(F)(F)(F)F)cc3)c(C)nc2c1[2H],inhibition,-,0.11 µM,fluorescence,Mycobacterium avium,-,85%
N#Cc1cc(C#N)c2[nH]c3ccccc3n2c1=O,EC50,HEP-2,-,plaque count,Respiratory syncytial virus,-,1.5 µg/mL
O=S(=O)([O-])c1ccc(NS(=O)(=O)c2ccccc2)c2c(S(=O)(=O)[O-])cccc12,inhibition,Human conjunctiva cells,50 µg/mL,cytopathic effect,Herpes simplex virus,-,0%

Repeating the final 4 entries:

{"smiles": "Cc1cc(OCCCc2ccc(I)nn2)cc(C)c1-c1noc(C(F)F)n1", "read-out": "EC50", "cells": "HeLa", "method": "cytopathic effect", "species": "Enterovirus", "value": "0.033–0.659 µg/mL"}
{"smiles": "[2H]c1c(C([2H])([2H])[2H])c([2H])n2c(C(=O)NCc3ccc(S(F)(F)(F)(F)F)cc3)c(C)nc2c1[2H]", "read-out": "inhibition", "tested at": "0.11 µM", "method": "fluorescence", "species": "Mycobacterium avium", "value": "85%"}
{"smiles": "N#Cc1cc(C#N)c2[nH]c3ccccc3n2c1=O", "read-out": "EC50", "cells": "HEP-2", "method": "plaque count", "species": "Respiratory syncytial virus", "value": "1.5 µg/mL"}
{"smiles": "O=S(=O)([O-])c1ccc(NS(=O)(=O)c2ccccc2)c2c(S(=O)(=O)[O-])cccc12", "read-out": "inhibition", "cells": "Human conjunctiva cells", "tested at": "50 µg/mL", "method": "cytopathic effect", "species": "Herpes simplex virus", "value": "0%"}

Two numbers with a dash give a range or band. MIC50, MIC90 and the like: level of inhibition, or share of isolates inhibited. ECn: concentration that inhibits the pathogen or its effect by n%. Inhibition is in % at the dose shown (toxicity tests: loss of growth or viability). Blank or dashed fields: not listed here.